Data: patent US9187529B2 (priority 2011, dated 2015)

Conditions: rabbits, 200 μl/day of 1.0 μg/mL peptide in aqueous gel, examined after 7 days

CC(C)C[C@H](NC(=O)[C@H](CC(=O)O)NC(=O)[C@H](CCCCN)NC(=O)[C@H](Cc1c[nH]cn1)NC(=O)[C@@H]1CCCN1C(=O)[C@H](CCCCN)NC(=O)[C@H](Cc1ccc(O)cc1)NC(=O)[C@@H](NC(=O)[C@H](CCCCN)NC(=O)[C@H](CCCCN)NC(=O)[C@H](CCCCN)NC(=O)[C@@H]1CCCN1C(=O)[C@H](CCCCN)NC(=O)[C@@H](N)CO)[C@@H](C)O)C(=O)N[C@@H](CO)C(=O)N[C@@H](Cc1c[nH]cn1)C(=O)NCC(=O)N[C@@H](CO)C(=O)N[C@@H](C)C(=O)N[C@@H](CCCCN)C(=O)N[C@@H](CCCCN)C(=O)N[C@@H](CCCCN)C(=O)O
signs of inflammation and vaginal irritation: No irritation or inflammation was observed
